Compound potency records, mixed from different reports. Data source: NIAID ChemDB in PubChem.

Shared fields: tests in culture; agent: HIV-1; read-out: EC50

ECn is the concentration giving n% inhibition of infection, replication or growth. Conditions beyond the fields shown may differ between rows.

{"compound": "C[C@H]1[C@H](C)CC[C@]2(C(=O)O)CC[C@]3(C)C(=CC[C@@H]4[C@@]5(C)CC[C@H](OC(=O)CCC(=O)O)C(C)(C)[C@@H]5CC[C@]43C)[C@H]12", "method": "p24 / ELISA", "cell line": "H9", "strain or isolate": "IIIB", "value": "15.3 µM"}
{"compound": "CCOP(=O)(CN[C@@H](Cc1ccccc1)[C@H](O)CN(CC(C)C)S(=O)(=O)c1ccc(OC)cc1)OCC", "method": "MTT", "cell line": "MT-4", "strain or isolate": "IIIB", "value": "7.77 µg/mL"}
{"compound": "COC(=O)c1cccc2c(C(=O)C(=O)N3CCN(C(=O)c4ccccc4)C(C(C)(C)C)C3)c[nH]c12", "method": "luciferase", "cell line": "HeLa + HELA CD4+/CCR5", "value": "<10 µM"}
{"compound": "O=C(NCc1c(F)cc(F)cc1F)c1cn2c(c(O)c1=O)C(=O)N[C@H]1CCCC[C@H]12", "method": "luminescence", "cell line": "MT-4", "strain or isolate": "IIIB", "value": "0.0022 µM"}
{"compound": "CC1=C(C)[C@]2(C)C(C)[C@@]1(C)[C@@H]1C(=O)N(N)C(=O)[C@@H]12", "method": "cytopathic effect / MTT", "cell line": "MT-4", "strain or isolate": "IIIB", "value": ">100 µM"}
{"compound": "CCCCOP(=O)(CN[C@@H](Cc1ccccc1)[C@H](O)CN(CC(C)C)S(=O)(=O)c1ccc(OC)cc1)OCCCC", "method": "MTT", "cell line": "MT-4", "strain or isolate": "RES056", "value": ">13.08 µg/mL"}
{"compound": "CC(C)C1=C2[C@H]3CC[C@@H]4[C@@]5(C)CC[C@H](OC(=O)[C@H]6C[C@@H](C(=O)O)C6(C)C)C(C)(C)[C@@H]5CC[C@@]4(C)[C@]3(C)CC[C@@]2([C@@H](O)CN(CCN(C)C)C(=O)c2cccc(Cl)c2)CC1=O", "method": "p24 / ELISA", "cell line": "MT-2", "strain or isolate": "92HT599", "value": "<1 µM"}
{"compound": "C[C@@H]1CN(C(=O)c2ccc(N)cc2)CCN1C(=O)C(=O)c1c[nH]c2c(F)ccc(F)c12", "method": "luciferase", "cell line": "HeLa + HELA CD4+/CCR5", "value": "<10 µM"}
{"compound": "CC(C)C1=C2[C@H]3CC[C@@H]4[C@@]5(C)CC[C@H](OC(=O)[C@H]6C[C@@H](C(=O)O)C6(C)C)C(C)(C)[C@@H]5CC[C@@]4(C)[C@]3(C)CC[C@@]2(CCNCc2ccc(OCCN3CCOCC3)cc2)CC1=O", "method": "p24 / ELISA", "cell line": "MT-2", "strain or isolate": "92HT599", "value": "<1 µM"}
{"compound": "Cc1cccc2c(C(=O)C(=O)N3CCN(C(=O)c4ccccn4)C[C@H]3C)c[nH]c12", "method": "luciferase", "cell line": "HeLa + HELA CD4+/CCR5", "value": "<10 µM"}
{"compound": "CC1=C[C@@H]2[C@@H]3C(=O)N(NC(=S)NC4CCCCC4)C(=O)[C@@H]3[C@H]1C[C@@H]2C(C)C", "method": "cytopathic effect / MTT", "cell line": "MT-4", "strain or isolate": "IIIB", "value": ">47 µM"}
{"compound": "CC(C)C1=C2[C@H]3CC[C@@H]4[C@@]5(C)CC[C@H](OC(=O)[C@H]6C[C@@H](C(=O)O)C6(C)C)C(C)(C)[C@@H]5CC[C@@]4(C)[C@]3(C)CC[C@@]2(CC(=O)NC(C)(C)c2ccc(Cl)cc2)CC1=O", "method": "p24 / ELISA", "cell line": "MT-2", "strain or isolate": "92HT599", "value": "<1 µM"}
{"compound": "COC(=O)[C@H](C)NP(=O)(OC[C@H]1O[C@@H](n2cc(C)c(=O)[nH]c2=O)C[C@@H]1N=[N+]=[N-])Oc1ccccc1", "cell line": "CEM + CEM TK-", "strain or isolate": "IIIB", "value": "3 µM"}
{"compound": "COc1ccc(NC(=O)NN2C(=O)[C@@H]3[C@H](C2=O)[C@]2(C)C=C[C@@]3(C(C)C)CC2)cc1", "method": "cytopathic effect / MTT", "cell line": "MT-4", "strain or isolate": "IIIB", "value": ">57 µM"}
{"compound": "C=C(C)[C@@H]1CC[C@]2(C(=O)O)CC[C@]3(C)[C@H](CC[C@@H]4[C@@]5(C)CC[C@H](OC(=O)CC(C)(C)C(=O)O)C(C)(C)[C@@H]5CC[C@]43C)[C@@H]12", "method": "p24 / ELISA", "cell line": "H9", "strain or isolate": "IIIB", "value": "<0.00035 µM"}
{"compound": "CC1=C[C@@H]2[C@@H]3C(=O)N(NC(=O)NC4CCCCC4)C(=O)[C@@H]3[C@H]1C[C@@H]2C(C)C", "method": "cytopathic effect / MTT", "cell line": "MT-4", "strain or isolate": "IIIB", "value": ">63 µM"}
{"compound": "C[C@H]1[C@H](C)CC[C@]2(C(=O)O)CC[C@]3(C)C(=CC[C@@H]4[C@@]5(C)CC[C@H](OC(=O)CC(C)(C)CC(=O)O)C(C)(C)[C@@H]5CC[C@]43C)[C@H]12", "method": "p24 / ELISA", "cell line": "H9", "strain or isolate": "IIIB", "value": ">7 µM"}
{"compound": "CC1=C[C@@H]2[C@@H]3C(=O)N(NC(=S)Nc4ccccc4)C(=O)[C@@H]3[C@H]1C[C@@H]2C(C)C", "method": "cytopathic effect / MTT", "cell line": "MT-4", "strain or isolate": "IIIB", "value": ">48 µM"}
{"compound": "O=C(N/N=C/c1ccc(O)cc1)Nc1cccc2nsnc12", "method": "cell fusion / luminescence", "cell line": "Cf2Th-CD4/CCR5", "strain or isolate": "YU2", "value": "8.6 µM"}
{"compound": "C[C@H]1CN(C(=O)c2ccccc2)CCN1C(=O)C(=O)c1c[nH]c2cc(Cl)ccc12", "method": "luciferase", "cell line": "HeLa + HELA CD4+/CCR5", "value": "<10 µM"}
{"compound": "C[C@H]1[C@H](C)CC[C@]2(C(=O)O)CC[C@]3(C)C(=CC[C@@H]4[C@@]5(C)CC[C@H](OC(=O)COCC(=O)O)C(C)(C)[C@@H]5CC[C@]43C)[C@H]12", "method": "p24 / ELISA", "cell line": "H9", "strain or isolate": "IIIB", "value": "0.31 µM"}
{"compound": "CC(C)C1=C2[C@H]3CC[C@@H]4[C@@]5(C)CC[C@H](OC(=O)[C@H]6C[C@@H](C(=O)O)C6(C)C)C(C)(C)[C@@H]5CC[C@@]4(C)[C@]3(C)CC[C@@]2([C@@H](O)CNCC(C)(C)NC(=O)c2ccc(Cl)cc2OCCN2CCOCC2)CC1=O", "method": "p24 / ELISA", "cell line": "MT-2", "strain or isolate": "92HT599", "value": "<1 µM"}
{"compound": "Nc1ccccc1C(=O)N1CCN(C(=O)C(=O)c2c[nH]c3cccc(F)c23)CC1", "method": "luciferase", "cell line": "HeLa + HELA CD4+/CCR5", "value": "<10 µM"}
{"compound": "CC(C)C1=C2[C@H]3CC[C@@H]4[C@@]5(C)CC[C@H](OC(=O)[C@H]6C[C@@H](C(=O)O)C6(C)C)C(C)(C)[C@@H]5CC[C@@]4(C)[C@]3(C)CC[C@@]2([C@@H](O)CNC(=O)C(C)(C)NC(=O)c2nccn2C)CC1=O", "method": "p24 / ELISA", "cell line": "MT-2", "strain or isolate": "92HT599", "value": "<1 µM"}
{"compound": "COc1ccc(OC)c2c(C(=O)C(=O)N3CCN(C(=O)c4ccccc4)CC3)c[nH]c12", "method": "luciferase", "cell line": "HeLa + HELA CD4+/CCR5", "value": "<10 µM"}
{"compound": "CC1(C)CC[C@]2(C(=O)O)CC[C@]3(C)C(=CC[C@@H]4[C@@]5(C)CC[C@H](O)C(C)(C)[C@@H]5CC[C@]43C)[C@@H]2C1", "method": "p24 / ELISA", "cell line": "H9", "strain or isolate": "IIIB", "value": "3.7 µM"}
{"compound": "CC(C)C1=C2[C@H]3CC[C@@H]4[C@@]5(C)CC[C@H](OC(=O)[C@H]6C[C@@H](C(=O)O)C6(C)C)C(C)(C)[C@@H]5CC[C@@]4(C)[C@]3(C)CC[C@@]2(CCNCc2ccc(N3CCS(=O)(=O)CC3)nc2)CC1=O", "method": "p24 / ELISA", "cell line": "MT-2", "strain or isolate": "92HT599", "value": "<1 µM"}
{"compound": "Cc1cc(C)c(-n2c(SCC(=O)Nc3ccccc3Cl)nc3cccnc32)c(C)c1", "method": "MTT", "cell line": "MT-4", "strain or isolate": "ROD", "value": ">26 µM"}

A second listing of 2 rows from above:

| compound | method | cell line | strain or isolate | value |
|---|---|---|---|---|
| CCCCOP(=O)(CN[C@@H](Cc1ccccc1)[C@H](O)CN(CC(C)C)S(=O)(=O)c1ccc(OC)cc1)OCCCC | MTT | MT-4 | RES056 | >13.08 µg/mL |
| C[C@H]1[C@H](C)CC[C@]2(C(=O)O)CC[C@]3(C)C(=CC[C@@H]4[C@@]5(C)CC[C@H](OC(=O)CC(C)(C)CC(=O)O)C(C)(C)[C@@H]5CC[C@]43C)[C@H]12 | p24 / ELISA | H9 | IIIB | >7 µM |